# Experimental data from patent publication US9944598B2, “Mono- or di-substituted indole derivatives as dengue viral replication inhibitors” (priority 2014, dated 2018).
# Tested on: DENV-2 16681 strain labeled with eGFP
# Test: DENV-2 antiviral assay (eGFP fluorescence, Vero cells)
# Format: cell-based, Dengue virus
# Conditions: SI=CC50/EC50, DENV-2 antiviral assay
# Procedure: The antiviral activity of all the compounds of the invention was tested against DENV-2 16681 strain which was labeled with enhanced green fluorescent protein (eGPF). The culture medium consists of minimal essential medium supplemented with 2% of heat-inactivated fetal calf serum, 0.04% gentamycin (50 mg/mL) and 2 mM of L-glutamine. Vero cells, obtained from ECACC, were suspended in culture medium and 25 μL was added to 384-well plates (2500 cells/well), which already contain the antiviral compounds. Typically, these plates contain a 4-fold serial dilution of 9 dilution steps of the test compound at 200 times the final concentration in 100% DMSO (200 nL). In addition, each compound concentration is tested in quadruplicate (final concentration range: 25 μM-0.00038 μM). Finally, each plate contains wells which are assigned as virus controls (containing cells and virus in the absence of compound), cell controls (containing cells in the absence of virus and compound) and medium controls (containing medium in the absence of cells, virus and compounds). To the wells assigned as medium control, 25 μL of culture medium was added instead of Vero cells. Once the cells were added to the plates, the plates were incubated for 30 minutes at room temperature to allow the cells to distribute evenly within the wells. Next, the plates were incubated in a fully humidified incubator (37° C., 5% CO2) until the next day. Then, DENV-2 strain 16681, labeled with eGFP, was added at a multiplicity of infection (MOI) of 0.5. Therefore, 15 μL of virus suspension was added to all the wells containing test compound and to the wells assigned as virus control. In parallel, 15 μL of culture medium was added to the medium and cell controls. Next, the plates were incubated for 3 days in a fully humidified incubator (37° C., 5% CO2). At the day of the read out, the eGFP fluorescence was measured using an automated fluorescence microscope at 488 nm (blue laser). Using an in-house LIMS system, inhibition dose response curves for each compound were calculated and the half maximal effective concentration (EC50) was determined. Therefore, the percent inhibition (I) for every test concentration is calculated using the following formula: I=100*(ST−SCC)/(SVC−SCC); ST, SCC and SVC are the amount of eGFP signal in the test compound, cell control and virus control wells, respectively. The EC50 represents the concentration of a compound at which the virus replication is inhibited with 50%, as measured by a 50% reduction of the eGFP fluorescent intensity compared to the virus control. The EC50 is calculated using linear interpolation (Table 1).
row,SMILES,SI
1,"COc1cc(NC(C(=O)c2c[nH]c3cc(OC)c(C)cc23)c2ccc(Cl)cc2OC)cc(OCCO)c1 (racemic) [Compound 6, 2-(4-chloro-2-methoxyphenyl)-2-((3-(2-hydroxyethoxy)-5-methoxyphenyl)amino)-1-(6-methoxy-5-methyl-1H-indol-3-yl)ethanone]",4639
2,"COc1cc(NC(C(=O)c2c[nH]c3cc(F)ccc23)c2ccc(Cl)cc2OC)cc(OCCO)c1 (single isomer, unassigned) [Compound 1B, 2-(4-chloro-2-methoxyphenyl)-1-(6-fluoro-1H-indol-3-yl)-2-((3-(2-hydroxyethoxy)-5-methoxyphenyl)amino)ethanone]",44
3,"COc1cc(NC(C(=O)c2c[nH]c3c(C)c(F)ccc23)c2ccc(Cl)cc2OC)cc(OCCO)c1 (single isomer, unassigned) [Compound 2B, 2-(4-chloro-2-methoxyphenyl)-1-(6-fluoro-7-methyl-1H-indol-3-yl)-2-((3-(2-hydroxyethoxy)-5-methoxyphenyl)amino)ethanone]",77
4,"COc1cc(NC(C(=O)c2c[nH]c3c(C)c(Cl)ccc23)c2ccc(Cl)cc2OC)cc(OCCO)c1 (racemic) [Compound 3, 2-(4-chloro-2-methoxyphenyl)-1-(6-chloro-7-methyl-1H-indol-3-yl)-2-((3-(2-hydroxyethoxy)-5-methoxyphenyl)amino)ethanone]",7587
5,"COc1cc(NC(C(=O)c2c[nH]c3cc(F)ccc23)c2ccc(Cl)cc2OC)cc(OCCO)c1 (racemic) [Compound 1, 2-(4-chloro-2-methoxyphenyl)-1-(6-fluoro-1H-indol-3-yl)-2-((3-(2-hydroxyethoxy)-5-methoxyphenyl)amino)ethanone]",2053
6,"COc1cc(NC(C(=O)c2c[nH]c3cc(F)c(F)cc23)c2ccc(Cl)cc2OC)cc(OCCO)c1 (racemic) [Compound 9, 2-(4-chloro-2-methoxyphenyl)-1-(5,6-difluoro-1H-indol-3-yl)-2-((3-(2-hydroxyethoxy)-5-methoxyphenyl)amino)ethanone]",3329
7,"COc1cc(NC(C(=O)c2c[nH]c3c(F)cc(C)cc23)c2ccc(Cl)cc2OC)cc(OCCO)c1 (single isomer, unassigned) [Compound 10B, 2-(4-chloro-2-methoxyphenyl)-1-(7-fluoro-5-methyl-1H-indol-3-yl)-2-((3-(2-hydroxyethoxy)-5-methoxyphenyl)amino)ethanone]",20
8,"COc1cc(NC(C(=O)c2c[nH]c3c(C)cc(F)cc23)c2ccc(Cl)cc2OC)cc(OCCO)c1 (racemic) [Compound 8, 2-(4-chloro-2-methoxyphenyl)-1-(5-fluoro-7-methyl-1H-indol-3-yl)-2-((3-(2-hydroxyethoxy)-5-methoxyphenyl)amino)ethanone]",3270
9,"COc1cc(NC(C(=O)c2c[nH]c3cc(OC)ccc23)c2ccc(Cl)cc2OC)cc(OCCO)c1 (single isomer, unassigned) [Compound 5B, 2-(4-chloro-2-methoxyphenyl)-2-((3-(2-hydroxyethoxy)-5-methoxyphenyl)amino)-1-(6-methoxy-1H-indol-3-yl)ethanone]",21
10,"COc1cc(NC(C(=O)c2c[nH]c3cc(OC)c(F)cc23)c2ccc(Cl)cc2OC)cc(OCCO)c1 (single isomer, unassigned) [Compound 7B, 2-(4-chloro-2-methoxyphenyl)-1-(5-fluoro-6-methoxy-1H-indol-3-yl)-2-((3-(2-hydroxyethoxy)-5-methoxyphenyl)amino)ethanone]",112
11,"COc1cc(NC(C(=O)c2c[nH]c3c(F)c(F)ccc23)c2ccc(Cl)cc2OC)cc(OCCO)c1 (racemic) [Compound 11, 2-(4-chloro-2-methoxyphenyl)-1-(6,7-difluoro-1H-indol-3-yl)-2-((3-(2-hydroxyethoxy)-5-methoxyphenyl)amino)ethanone]",1879
12,"COc1cc(NC(C(=O)c2c[nH]c3cc(Cl)ccc23)c2ccc(Cl)cc2OC)cc(OCCO)c1 (single isomer, unassigned) [Compound 4B, 1-(6-chloro-1H-indol-3-yl)-2-(4-chloro-2-methoxyphenyl)-2-((3-(2-hydroxyethoxy)-5-methoxyphenyl)amino)ethanone]",164
13,"COc1cc(NC(C(=O)c2c[nH]c3c(F)c(F)ccc23)c2ccc(Cl)cc2OC)cc(OCCO)c1 (single isomer, unassigned) [Compound 11A, 2-(4-chloro-2-methoxyphenyl)-1-(6,7-difluoro-1H-indol-3-yl)-2-((3-(2-hydroxyethoxy)-5-methoxyphenyl)amino)ethanone]",72
14,"COc1cc(NC(C(=O)c2c[nH]c3cc(OC)ccc23)c2ccc(Cl)cc2OC)cc(OCCO)c1 (racemic) [Compound 5, 2-(4-chloro-2-methoxyphenyl)-2-((3-(2-hydroxyethoxy)-5-methoxyphenyl)amino)-1-(6-methoxy-1H-indol-3-yl)ethanone]",2860
15,"COc1cc(NC(C(=O)c2c[nH]c3cc(OC)c(F)cc23)c2ccc(Cl)cc2OC)cc(OCCO)c1 (racemic) [Compound 7, 2-(4-chloro-2-methoxyphenyl)-1-(5-fluoro-6-methoxy-1H-indol-3-yl)-2-((3-(2-hydroxyethoxy)-5-methoxyphenyl)amino)ethanone]",2860
16,"COc1cc(NC(C(=O)c2c[nH]c3c(F)cc(C)cc23)c2ccc(Cl)cc2OC)cc(OCCO)c1 (centres unmarked) [Compound 10, 2-(4-chloro-2-methoxyphenyl)-1-(7-fluoro-5-methyl-1H-indol-3-yl)-2-((3-(2-hydroxyethoxy)-5-methoxyphenyl)amino)ethanone]",767
17,"COc1cc(NC(C(=O)c2c[nH]c3cc(OC)c(C)cc23)c2ccc(Cl)cc2OC)cc(OCCO)c1 (single isomer, unassigned) [Compound 6B, 2-(4-chloro-2-methoxyphenyl)-2-((3-(2-hydroxyethoxy)-5-methoxyphenyl)amino)-1-(6-methoxy-5-methyl-1H-indol-3-yl)ethanone]",71
18,"COc1cc(NC(C(=O)c2c[nH]c3c(C)c(Cl)ccc23)c2ccc(Cl)cc2OC)cc(OCCO)c1 (single isomer, unassigned) [Compound 3B, 2-(4-chloro-2-methoxyphenyl)-1-(6-chloro-7-methyl-1H-indol-3-yl)-2-((3-(2-hydroxyethoxy)-5-methoxyphenyl)amino)ethanone]",158
19,"COc1cc(NC(C(=O)c2c[nH]c3c(C)cc(F)cc23)c2ccc(Cl)cc2OC)cc(OCCO)c1 (single isomer, unassigned) [Compound 8B, 2-(4-chloro-2-methoxyphenyl)-1-(5-fluoro-7-methyl-1H-indol-3-yl)-2-((3-(2-hydroxyethoxy)-5-methoxyphenyl)amino)ethanone]",22
20,"COc1cc(NC(C(=O)c2c[nH]c3cc(Cl)ccc23)c2ccc(Cl)cc2OC)cc(OCCO)c1 (racemic) [Compound 4, 1-(6-chloro-1H-indol-3-yl)-2-(4-chloro-2-methoxyphenyl)-2-((3-(2-hydroxyethoxy)-5-methoxyphenyl)amino)ethanone]",4398
